Source: patent publication US4794170A (priority 1984, dated 1988)

What was measured:
[1] = test system: receptors of the hepatocytes specific for the proteins ending with the galactose; assay: Disappearance from plasma of [14C]asialofetuine (AF) in the mouse; type: in vivo, mice (female Swiss); conditions: in words; conjugate vs equal amount of non conjugated L31 HSA
Ectromelia virus = test system: Ectromelia virus; design: species or system mice; conditions: mouse, in vivo
[2] = mouse, in vivo, iv
[3] = Solubility and molar ratio after lyophilization and storage; type: physicochemical; conditions: 0°-4° C. or room temperature; at least up to 4 months (maximum time tested)

For “conjugate 1: conjugate of ara-AMP with L31-HSA, ECDI, pH 7.5, 25° C., 24 hours, molar ratio 14”, the “inhibition of the disappearance of radioactive asialofetuine from plasma” value [1] was “competitively inhibited at the same rate”, the “Inhibition of the DNA synthesis % liver” value (Ectromelia virus) was 32% and 41% and the “synthesis of DNA in the liver” value (Ectromelia virus) was “inhibits the synthesis of DNA in the liver”. The “maximum tested dose relative to the dose used for treatment of Ectromelia hepatitis” value [2] was 40-50 times and the solubility on storage [3] was “do not decrease”.

Values joined by “and” are separate entries in the source; they are usually repeats but may differ in a detail not shown here. Identical values can stand only once.
